## Sequence variants of PSTVd loop 1 after infection

The measurements come from Wu et al. 2024 (doi:10.1371/journal.ppat.1012142).

The pool varies loop 1 of the PSTVd intermediate strain in the pattern CNNNNG; wild type is CCUCGG (5' to 3', with the closing base pair).

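Three N. benthamiana plants were inoculated with the whole mutant pool. Progeny were sequenced from the inoculated region (day 5), the margin of the inoculated leaf (day 10) and systemic leaves (day 12).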

Values are reads per thousand in the sample; higher means more abundant, 0 means not found. Each site shows the three plants. "Pool" is the share in the plasmid pool used as inoculum, on the same scale. The inoculated region was read from the minus strand, the other sites from the plus strand.

sequence	pool	inoculated region	leaf margin	systemic leaves
CACUCG	3.65	2.88 2.89 2.52	0 0 3.78	0 0 1.17
CACUGA	0.0131	0 0 0	0 0 3.66	0 0 1.38
CACUGG	4.31	3.10 2.87 3.05	0 0 0.0305	0 0 0
CACUUG	4.26	2.88 3.37 2.73	0.0199 0 0	0 0.0180 3.71
CAGAAG	3.47	3.23 3.06 2.52	0 0 0	0 0 0
CAGACG	3.67	0 2.66 2.43	0.0199 0 0	0 0 0
CAGAGG	3.07	2.84 2.77 2.73	0 0 0	0.0203 0 0
CAGAUG	4.20	3.32 2.44 2.89	0 0 0.0305	0 0 0
CAGCAG	3.06	2.55 3.11 2.66	0 0.0211 3.81	0 0 1.32
CAGCCG	5.08	3.17 0 2.63	0 0.0211 0	0 0 0.0822
CAGCGG	3.69	3.30 2.91 2.05	0.0398 0 0	0 0 0
CAGCUG	4.69	3.43 3.21 2.79	0.0199 0 0	0 0 0.0493
CAGGAG	3.57	3.06 2.34 2.84	0 0 3.78	0 0 1.40
CAGGCG	3.76	2.97 2.68 2.59	0.0199 0 0	0 0 0.0493
CAGGGG	4.66	2.86 2.79 2.68	0.0199 0.0211 0.0305	0 0 0.0822
CAGGUG	3.71	3.14 3.04 2.38	0 0 0	0 0 0.0164
CAGUAG	4.64	2.93 2.68 2.73	0 0.0211 0	0 0.0180 0.0164
CAGUCG	3.89	3.03 3.39 2.93	0 0 0	0 0 0.0164
CAGUGG	3.39	2.73 2.38 2.61	0.0199 0 4.09	0 0 1.32
CAGUUG	5.28	3.14 3.06 2.29	0 0 0	0 0.0180 0.0493
CAUAAG	3.60	3.32 2.83 2.48	0 0.0211 0.0305	0 0 0
CAUACA	0.0131	0 0 0	0 0 0	0 0 0
CAUACG	4.36	3.03 2.70 2.97	0 0 0	0 0 0.0329
CAUAGG	3.26	2.82 2.81 2.61	0.0199 0.0211 0	0.0203 0 0.0164
CAUAUG	4.40	2.79 3.06 3.16	0 0.0211 0	0 0 0.0164
CAUCAG	4.24	2.97 3.17 2.70	0 0.0211 0	0 0 0.0493
CAUCCG	3.35	2.60 2.42 2.63	0 0 0	0.0203 0 0
CAUCGG	4.30	32.0 23.8 43.6	24.8 35.9 23.0	4.73 4.38 3.78
CAUCUG	3.69	3.03 2.68 2.93	0 0 0.0305	0.0203 0 0
CAUGAG	3.55	3.01 2.87 2.39	0 0 0	0 0 0
CAUGCG	3.73	2.60 2.96 3.02	0 0 0	0 0 0
CAUGGG	4.80	2.95 2.76 2.88	0.0199 0 0.0305	0 0.0180 0.0658
CAUGUG	3.59	3.14 2.81 2.47	0.0199 0 0	0 0 0
CAUUAG	3.56	2.60 2.94 2.54	0 0 0	0 0 0.0164
CAUUCG	4.19	3.34 2.92 2.64	0.0199 0.0211 0.0305	0 0 0.0164
CAUUGG	4.20	3.04 2.89 2.59	0 0 0	0 0.0180 0
CAUUUG	3.05	2.66 2.31 2.61	0 0 0.0305	0 0 0
CCAAAG	3.53	2.79 2.85 2.64	0 0.0211 0	0 0 0
CCAACG	3.17	2.84 3.41 2.72	0 0.0211 0	0 0 0
CCAAGG	3.60	2.86 2.89 2.91	0 0 0.0305	0 0 0
CCAAUG	3.51	2.42 2.70 3.16	0 0.0211 0	0 0 0
CCACAG	3.23	2.88 3.11 2.95	0 0 0	0 0 0
CCACCG	4.13	2.71 2.51 2.63	0.0199 0 3.35	0 0 1.33
CCACCU	0.0131	0 0 0	0 0 4.24	0 0 1.18
CCACGG	3.10	2.58 2.72 2.70	7.96 7.54 4.76	0.162 0.0539 7.20
CCACUG	3.27	2.60 2.64 2.68	0.0199 0.0211 0	0 0 0
CCAGAG	3.42	2.88 2.74 2.55	0 0 0	0 0 0
CCAGCG	3.15	2.82 2.68 2.63	0.0199 0 0	0 0 0
CCAGGG	3.17	2.97 2.61 2.70	0 0.0211 0.0305	0 0 0
CCAGUG	3.42	2.93 2.42 2.43	0 0.0423 3.69	0 0 1.05
CCAUAG	3.51	2.75 2.85 2.57	0 0 4.03	0 0 1.66
CCAUCG	3.27	2.69 2.66 2.48	0.0199 0 0	0 0 0
CCAUGG	3.43	2.88 2.72 2.73	0.0199 0.0211 0	0 0 0
CCAUUG	3.88	2.93 3.26 3.18	0 0 0	0 0 0.0164
CCCAAG	4.06	3.80 2.77 2.82	0 0 0	0 0 0.0329
CCCACG	3.57	2.92 3.04 3.16	0 0.0211 0.0305	0 0 0
CCCAGG	3.36	2.73 2.91 2.43	0 0 0	0 0 0
CCCAUG	3.56	2.97 3.06 2.82	0 0 0	0 0 0
CCCCAG	4.13	2.68 3.39 3.04	0 0.0211 0	0 0 0
CCCCCG	2.93	2.62 2.68 2.50	0.0199 0 0.0305	0 0 0
CCCCGG	3.60	2.99 3.15 2.88	0.159 0.106 0.122	0.122 3.50 3.62
CCCCUG	3.92	3.14 2.64 2.41	0.0199 0 0.0305	0 0 0
CCCGAG	3.56	2.51 2.44 2.82	0 0 0.0305	0 0 0
CCCGCG	3.73	2.71 3.36 2.84	0 0.0423 0	0 0 0.0164
CCCGGG	3.26	2.32 2.68 2.54	0.0199 0 0.0305	0 0 0
CCCGUG	3.40	2.95 2.74 2.79	0 7.52 4.60	0 0 0
CCCUAG	3.49	2.97 2.89 2.72	0 0.0211 0.0305	0 0 0.0164
CCCUCG	4.23	3.19 2.77 2.66	0 0 0	0 0 0
CCCUGG	3.17	2.88 3.13 2.82	0 0 0	0 0 0

9 of these entries, quoted again:

sequence	pool	inoculated region	leaf margin	systemic leaves
CAUACA	0.0131	0 0 0	0 0 0	0 0 0
CAGUGG	3.39	2.73 2.38 2.61	0.0199 0 4.09	0 0 1.32
CCCAUG	3.56	2.97 3.06 2.82	0 0 0	0 0 0
CAGUCG	3.89	3.03 3.39 2.93	0 0 0	0 0 0.0164
CCACCU	0.0131	0 0 0	0 0 4.24	0 0 1.18
CCAUGG	3.43	2.88 2.72 2.73	0.0199 0.0211 0	0 0 0
CCAUCG	3.27	2.69 2.66 2.48	0.0199 0 0	0 0 0
CACUCG	3.65	2.88 2.89 2.52	0 0 3.78	0 0 1.17
CCCGUG	3.40	2.95 2.74 2.79	0 7.52 4.60	0 0 0

With 32,791-60,834 reads a sample, very low values are single reads. Wild type was 20.1 per thousand in the pool and the most common sequence in every sample (inoculated region 197, 219, 222; leaf margin 828, 823, 779; systemic leaves 914, 907, 857). The authors trace changes outside the varied positions to PCR and sequencing errors or to mutation in the plant; presence does not show that a variant is infectious alone.